Reference: patent US20080095796A1, “Novel Infectious Burasal Disease Virus And Vaccine Containing Said Virus” (published 2008)

Target: IBD virus K strain (attenuated live vaccine strain) (infectious bursal disease virus K strain)

“serum of untreated control SPF chickens (Example 9) (polyclonal serum or antibody)” showed a Neutralizing Antibody titer (Fold, GM value) of 1 Fold.
